Compound potency records, mixed from different reports. Data source: NIAID ChemDB in PubChem.

Common to all: enzyme or target tests; organism: HIV-1; target: Protease

Blank or dashed fields: not listed here. ICn: concentration for n% inhibition. Neighbouring rows are from separate reports. Two numbers with a dash give a range or band.

SMILES	setting	measure	read by	value
COC(=O)[C@]12CCC(C)(C)CC1C1=CCC3[C@@]4(C)CC/C(=N\OC(=O)CCCCC(=O)O)C(C)(C)C4CC[C@@]3(C)[C@]1(C)CC2		IC50	HPLC	4 µM
CON(C)C(=O)OCCCCC(C)(C)CN(C[C@@H](O)[C@H](Cc1ccccc1)NC(=O)O[C@H]1CO[C@H]2OCC[C@H]21)S(=O)(=O)c1ccc2c(c1)OCO2		Ki	fluorescence	<0.001 µM
C[C@H]1[C@H](C)CC[C@]2(C(=O)O)CC[C@]3(C)C(=CC[C@@H]4[C@@]5(C)CC[C@H](OC(=O)CCC(=O)O)C(C)(C)[C@@H]5CC[C@]43C)[C@H]12		IC50	HPLC	6 µM
CC1(C)CC[C@]2(C(=O)O)CC[C@]3(C)C(=CCC4[C@@]5(C)CC/C(=N\OC(=O)CCCCC(=O)O)C(C)(C)C5CC[C@]43C)C2C1		IC50	HPLC	5.5 µM
CC(=S)[C@H](NC(=O)OCC1=CCCC=C1)C(=O)N[C@@H](Cc1ccccc1)[C@@H]1O[C@@H]1[C@H](Cc1ccccc1)NC(=O)[C@@H](NC(=O)OCc1ccccc1)C(C)=S		IC50	fluorescence	0.195 µg/mL
CC(C)[C@H](NC(=O)OCc1ccccc1)C(=O)N[C@@H](Cc1ccccc1)[C@H](O)CNC[C@H](O)[C@H](Cc1ccccc1)NC(=O)[C@@H](NC(=O)OCc1ccccc1)C(C)C	pH 5.5	IC50	HPLC	<10 µM
CC(C)(CCCCNC(=O)O[C@@H]1CCOC1)CN(C[C@@H](O)[C@H](Cc1ccccc1)NC(=O)O[C@H]1CO[C@H]2OCC[C@H]21)S(=O)(=O)c1ccc2c(c1)OCO2		Ki	fluorescence	<0.001 µM
N[C@H](Cc1ccc(O)c(-c2cc(C[C@@H](N)C(=O)O)ccc2O)c1)C(=O)O		IC50		240 µM
CC(C)OC(=O)NCCC(C)(C)CN(C[C@@H](O)[C@H](Cc1ccccc1)NC(=O)O[C@H]1CO[C@H]2OCC[C@H]21)S(=O)(=O)c1ccc2c(c1)OCO2		Ki	fluorescence	<0.001 µM
CC1(C)CC2C3=CCC4[C@@]5(C)CC[C@H](OC(=O)CCCCC(=O)O)C(C)(C)C5CC[C@@]4(C)[C@]3(C)CC[C@@]2(C)[C@H](OC(=O)CCCCC(=O)O)C1		IC50	HPLC	2.3 µM
CC(C)[C@@H]1NC(=O)[C@@H](NC(=O)OCc2ccccc2)CCC(=O)Nc2cccc(c2)C[C@@H]([C@@H](O)[C@H](O)[C@@H]2Cc3cccc(c3)NC(=O)CC[C@H](NC(=O)OCc3ccccc3)C(=O)N[C@@H](C(C)C)C(=O)N2)NC1=O		IC50	fluorescence	0.389 µM
C[C@H](CC[C@H](O)C(C)(O)CO)[C@H]1CC[C@@]2(C)C3=CC[C@H]4C(C)(C)C(=O)CC[C@]4(C)C3=CC[C@]12C		IC50	HPLC	50 µM
COC(=O)[C@]12CCC(C)(C)CC1C1=CCC3[C@@]4(C)CC/C(=N\OC(=O)CCCCC(=O)O)C(C)(C)C4CC[C@@]3(C)[C@]1(C)CC2		IC50	HPLC	4 µM
COc1ccc(S(=O)(=O)N(CCCCC#N)C[C@@H](O)[C@H](Cc2ccccc2)NC(=O)OC(C)(C)C)cc1		Ki	fluorescence	0.001–0.01 µM
CC(C)(C)OC(=O)N1C2C3C4N(C(=O)OC(C)(C)C)C5C(C1C5(CO)[C@H]3c1ccccc1)[C@@H](c1ccccc1)C24CO		IC50		0.072 µM
N#CC[C@H](NC(=O)Oc1ccc2ccccc2n1)C(=O)N[C@@H](Cc1ccccc1)[C@@H]1O[C@@H]1[C@H](Cc1ccccc1)NC(=O)[C@H](CC#N)NC(=O)Oc1ccc2ccccc2n1		IC50	fluorescence	4.2 µg/mL
C[C@H](CC(=O)C[C@@H](C)[C@H]1C[C@H](O)[C@@]2(C)C3=C(C(=O)C[C@]12C)[C@@]1(C)CCC(=O)C(C)(C)[C@@H]1C[C@@H]3O)C(=O)O		IC50	HPLC	430 µM
O=C(COc1ccccc1O)N[C@@H](Cc1ccccc1)C[C@H](O)[C@H](Cc1ccccc1)NC(=O)COc1ccccc1O		IC50	fluorescence	7 µM
C[C@H](CCC=C(CO)CO)[C@H]1CC[C@@]2(C)C3=CC[C@H]4C(C)(C)C(=O)CC[C@]4(C)C3=CC[C@]12C		IC50	HPLC	>500 µM
O=Cc1ccc(OCC(=O)N[C@@H](Cc2ccccc2)C[C@H](O)[C@H](Cc2ccccc2)NC(=O)COc2ccc(C=O)cc2)cc1		IC50	fluorescence	19 µM
CC(=O)N[C@@H](Cc1ccc(F)cc1)C(=O)N[C@H](C(=O)N[C@@H](Cc1ccccc1)[C@@H](O)C(=O)N[C@H]1Cc2ccc(cc2)OCCOCCNC(=O)[C@H](C(C)C)NC1=O)C(C)C		IC50	fluorescence	0.005 µM
CC1(C)CC[C@]2(C(=O)O)CC[C@]3(C)C(=CC[C@@H]4[C@@]5(C)CC[C@H](OC(=O)CCCCC(=O)O)C(C)(C)[C@@H]5CC[C@]43C)[C@@H]2C1		IC50	HPLC	3 µM
CCCC[C@H](NC(=O)OCc1ccccn1)C(=O)N[C@@H](Cc1ccccc1)[C@@H]1O[C@@H]1[C@H](Cc1ccccc1)NC(=O)[C@H](CCCC)NC(=O)OCc1ccccn1		IC50	fluorescence	>1000 µg/mL
CC1(C)CC[C@]2(C(=O)O)CC[C@]3(C)C(=CCC4[C@@]5(C)CC[C@H](NC(=O)CCCCC(=O)O)C(C)(C)C5CC[C@]43C)C2C1		IC50	HPLC	3 µM
Cc1cccc(C)c1OCC(=O)N[C@@H](Cc1ccccc1)C[C@H](O)[C@H](Cc1ccccc1)NC(=O)[C@H](NC(=O)c1cc(=O)c2ccccc2[nH]1)C(C)C		IC50	fluorescence	0.003 µM
CC(=O)N[C@@H](C)C(=O)N[C@H](C(=O)N[C@@H](Cc1ccccc1)[C@@H](O)C(=O)N[C@H]1Cc2ccc(cc2)OCCCNC(=O)[C@H](C(C)C)NC1=O)C(C)C		IC50	fluorescence	0.006 µM
CC(C)[C@H](NC(=O)[C@@H](NC(=O)c1cc2ccccc2c(Cc2c(O)c(C(=O)N[C@H](C(=O)N[C@H](C(=O)O)C(C)C)C(C)C)cc3ccccc23)c1O)C(C)C)C(=O)O		IC50		2.8 µM
CC1(C)CC[C@]2(C(=O)O)CC[C@]3(C)C(=CCC4[C@@]5(C)CC[C@@H](NC(=O)CCCCC(=O)O)C(C)(C)C5CC[C@]43C)C2C1		IC50	HPLC	2.1 µM
CC(C)(CCCOC(=O)NC1CC1)CN(C[C@@H](O)[C@H](Cc1ccccc1)NC(=O)O[C@H]1CO[C@H]2OCC[C@H]21)S(=O)(=O)c1ccc2c(c1)OCO2		Ki	fluorescence	<0.001 µM
CCCCCCCCCCCCCC(=O)N[C@@H](Cc1ccccc1)C(=O)O		IC50	HPLC	44 µM
COCCOC(=O)NCCCCC(C)(C)CN(C[C@@H](O)[C@H](Cc1ccccc1)NC(=O)O[C@H]1CO[C@H]2OCC[C@H]21)S(=O)(=O)c1ccc2c(c1)OCO2		Ki	fluorescence	<0.001 µM
COC(=O)[C@]12CCC(C)(C)C[C@H]1C1=CC[C@@H]3[C@@]4(C)CC[C@@H](NC(=O)CCCCC(=O)OC[C@H]5O[C@@H](n6cc(C)c(=O)[nH]c6=O)C[C@@H]5N=[N+]=[N-])C(C)(C)[C@@H]4CC[C@@]3(C)[C@]1(C)CC2		IC50	HPLC	8 µM
CC(C)[C@H](NC(=O)OCc1ccccc1)C(=O)N[C@@H](Cc1ccccc1)[C@H](O)CNC[C@@H](O)[C@H](Cc1ccccc1)NC(=O)[C@H](CC(N)=O)NC(=O)OCc1ccccc1	pH 5.5	IC50	HPLC	<10 µM
CC(C)[C@H](NC(=O)[C@H](C)NC(=O)OCc1ccccc1)C(=O)N[C@@H](Cc1ccccc1)[C@@H](O)[C@H](O)[C@H](Cc1ccccc1)NC(=O)[C@@H](NC(=O)[C@H](C)NC(=O)OCc1ccccc1)C(C)C		IC50	fluorescence	0.004 µM
CC(C)(CCCOC(=O)NCCO)CN(C[C@@H](O)[C@H](Cc1ccccc1)NC(=O)O[C@H]1CO[C@H]2OCC[C@H]21)S(=O)(=O)c1ccc2c(c1)OCO2		Ki	fluorescence	<0.001 µM
Cc1cccc(C)c1OCC(=O)N[C@@H](Cc1ccccc1)C[C@H](O)[C@H](Cc1ccccc1)NC(=O)COc1c(C)cccc1C		IC50	fluorescence	0.028 µM
C[C@H](CC(=O)C[C@@H](C)[C@H]1CC(=O)[C@@]2(C)C3=C(C(=O)C[C@]12C)[C@@]1(C)CC[C@H](O)C(C)(C)[C@@H]1C[C@@H]3O)C(=O)O		IC50	HPLC	140 µM
CC(C)[C@H](NC(=O)c1cc2ccccc2c(Cc2c(O)c(C(=O)N[C@H](C(=O)O)C(C)C)cc3ccccc23)c1O)C(=O)O		IC50		40 µM
CC(C)(CCCCNS(C)(=O)=O)CN(C[C@@H](O)[C@H](Cc1ccccc1)NC(=O)O[C@H]1CCOC1)S(=O)(=O)c1ccc(N)cc1		Ki	fluorescence	<0.001 µM
CC(C)[C@H](NC(=O)[C@H](C)O)C(=O)N[C@@H](Cc1ccccc1)[C@H](O)CNC[C@@H](O)[C@H](Cc1ccccc1)NC(=O)OC(C)(C)C	pH 5.5	IC50	HPLC	<10 µM
CC(C)(CCNC(=O)OC1COCOC1)CN(C[C@@H](O)[C@H](Cc1ccccc1)NC(=O)O[C@H]1CO[C@H]2OCC[C@H]21)S(=O)(=O)c1ccc2c(c1)OCO2		Ki	fluorescence	<0.001 µM
CCCCCCCCCCCCCC(=O)Oc1ccc([S+](C)C)cc1.COS(=O)(=O)[O-]		IC50	HPLC	30 µM
CNc1cccc(S(=O)(=O)N(C[C@@H](O)[C@H](Cc2ccccc2)NC(=O)O[C@H]2CO[C@H]3OCC[C@H]32)CC(C)(C)CCNC(=O)OC)c1		Ki	fluorescence	<0.001 µM
CC(C)[C@H](NC(=O)OC[C@H](O)CO)C(=O)N[C@@H](Cc1ccccc1)[C@H](O)CNC[C@@H](O)[C@H](Cc1ccccc1)NC(=O)OC(C)(C)C	pH 5.5	IC50	HPLC	<10 µM
CC(C)(CCCCN=C(NC#N)Oc1ccccc1)CN(C[C@@H](O)[C@H](Cc1ccccc1)NC(=O)O[C@H]1CO[C@H]2OCC[C@H]21)S(=O)(=O)c1ccc2c(c1)OCO2		Ki	fluorescence	<0.001 µM
COC(=O)[C@]12CCC(C)(C)CC1C1=CCC3[C@@]4(C)CC[C@@H](NC(=O)CCCCC(=O)O)C(C)(C)C4CC[C@@]3(C)[C@]1(C)CC2		IC50	HPLC	3.5 µM
COCC(=O)NCCCCC(C)(C)CN(C[C@@H](O)[C@H](Cc1ccccc1)NC(=O)O[C@H]1CO[C@H]2OCC[C@H]21)S(=O)(=O)c1ccc2c(c1)OCO2		Ki	fluorescence	<0.001 µM
CC(C)[C@H](NC(=O)c1ccc2ccccc2n1)C(=O)N[C@@H](Cc1ccccc1)[C@@H]1O[C@@H]1[C@H](Cc1ccccc1)NC(=O)[C@@H](NC(=O)c1ccc2ccccc2n1)C(C)C		IC50	fluorescence	>1000 µg/mL
CN(C)C(=NCCCC(C)(C)CN(C[C@@H](O)[C@H](Cc1ccccc1)NC(=O)O[C@H]1CO[C@H]2OCC[C@H]21)S(=O)(=O)c1ccc2c(c1)OCO2)NC#N		Ki	fluorescence	<0.001 µM
CC1(C)CC[C@]2(C(=O)O)CC[C@]3(C)C(=CCC4[C@@]5(C)CC[C@H](OC(=O)C(=O)O)C(C)(C)C5CC[C@]43C)C2C1		IC50	HPLC	20 µM
CN(C)C(=O)NCCC(C)(C)CN(C[C@@H](O)[C@H](Cc1ccccc1)NC(=O)O[C@H]1CO[C@H]2OCC[C@H]21)S(=O)(=O)c1cccc(N)c1		Ki	fluorescence	<0.001 µM
CC(C)(CO)OC(=O)N[C@@H](Cc1ccccc1)[C@H](O)CNC[C@@H](O)[C@H](Cc1ccccc1)NC(=O)C1(O)CCCC1(C)C	pH 5.5	IC50	HPLC	<10 µM
CC(C)(CCNC(=O)c1ccc2c(c1)OCO2)CN(C[C@@H](O)[C@H](Cc1ccccc1)NC(=O)O[C@H]1CO[C@H]2OCC[C@H]21)S(=O)(=O)c1ccc2c(c1)OCO2		Ki	fluorescence	<0.001 µM
CC1(C)CC[C@]2(C(=O)O)CC[C@]3(C)C(=CC[C@@H]4[C@@]5(C)CC[C@H](O)C(C)(C)[C@@H]5CC[C@]43C)[C@@H]2C1		IC50	HPLC	8 µM
CC(C)(CCCOC(=O)NN)CN(C[C@@H](O)[C@H](Cc1ccccc1)NC(=O)O[C@H]1CO[C@H]2OCC[C@H]21)S(=O)(=O)c1ccc2c(c1)OCO2		Ki	fluorescence	<0.001 µM
CC(C)(C)OC(=O)N1C2C3(CO)C(c4ccccc4)C4(CO)C1C1(CO)C(c5ccccc5)C2(CO)C3N(C(=O)OC(C)(C)C)C41		IC50		0.02 µM
CC(C)(CCCOC(=O)NO)CN(C[C@@H](O)[C@H](Cc1ccccc1)NC(=O)O[C@H]1CO[C@H]2OCC[C@H]21)S(=O)(=O)c1ccc2c(c1)OCO2		Ki	fluorescence	<0.001 µM
O=Cc1ccc(OCC(=O)N[C@@H](Cc2ccccc2)C[C@@H](O)[C@H](Cc2ccccc2)NC(=O)COc2ccc(C=O)cc2)cc1		IC50	fluorescence	23 µM

For reference, 6 entries again:

SMILES	setting	measure	read by	value
CC1(C)CC2C3=CCC4[C@@]5(C)CC[C@H](OC(=O)CCCCC(=O)O)C(C)(C)C5CC[C@@]4(C)[C@]3(C)CC[C@@]2(C)[C@H](OC(=O)CCCCC(=O)O)C1		IC50	HPLC	2.3 µM
CC(=O)N[C@@H](Cc1ccc(F)cc1)C(=O)N[C@H](C(=O)N[C@@H](Cc1ccccc1)[C@@H](O)C(=O)N[C@H]1Cc2ccc(cc2)OCCOCCNC(=O)[C@H](C(C)C)NC1=O)C(C)C		IC50	fluorescence	0.005 µM
COC(=O)[C@]12CCC(C)(C)CC1C1=CCC3[C@@]4(C)CC/C(=N\OC(=O)CCCCC(=O)O)C(C)(C)C4CC[C@@]3(C)[C@]1(C)CC2		IC50	HPLC	4 µM
CC(C)[C@H](NC(=O)c1ccc2ccccc2n1)C(=O)N[C@@H](Cc1ccccc1)[C@@H]1O[C@@H]1[C@H](Cc1ccccc1)NC(=O)[C@@H](NC(=O)c1ccc2ccccc2n1)C(C)C		IC50	fluorescence	>1000 µg/mL
O=C(COc1ccccc1O)N[C@@H](Cc1ccccc1)C[C@H](O)[C@H](Cc1ccccc1)NC(=O)COc1ccccc1O		IC50	fluorescence	7 µM
CC1(C)CC[C@]2(C(=O)O)CC[C@]3(C)C(=CCC4[C@@]5(C)CC[C@H](NC(=O)CCCCC(=O)O)C(C)(C)C5CC[C@]43C)C2C1		IC50	HPLC	3 µM